Pooled drug test results. Numbers come from NIAID ChemDB, via PubChem.

Common to all: growth or infection tests; agent: HIV-1

Lines come from different laboratories, so protocols vary. An empty or dashed field is not shown. ECn: concentration that inhibits the pathogen or its effect by n%. Two numbers with a dash give a range or band.

| SMILES | setting | strain | measure | changes | cell line | method | value |
|---|---|---|---|---|---|---|---|
| Cc1[nH]c(=S)n(Nc2cccc(Cl)c2)c1-c1ccccc1 | - | IIIB | EC50 | - | MT-4 | cytopathic effect / MTT | 6.39 µM |
| C#Cc1cn([C@H]2O[C@H](CO)[C@@H](O)[C@@]2(C)F)c2ncnc(N)c12 | - | - | EC90 | - | PBMC | - | >100 µM |
| O=C(c1ccccc1SSc1ccccc1C(=O)N1CCOCC1)N1CCOCC1 | - | - | EC50 | - | CEM | cytopathic effect / XTT | >50 µM |
| COc1cccc(F)c1C(=O)c1nc(N(C)C)nc(OC)c1C | - | IIIB | EC50 | K103N + Y181C | MT-4 | MTT | >7.8 µM |
| CCN1c2ncc(CCOc3ccc(C(=O)Nc4ccc(CC(=O)O)cc4)cc3C)cc2C(=O)Nc2c(C)ccnc21 | - | IIIB | EC50 | - | C8166 | p24 | 0.01–0.05 µM |
| N#Cc1cc(Cl)cc(Oc2cc(Cl)cc(OCc3nc4cccc(Cl)c4s3)c2)c1 | - | - | EC95 | - | MT-4 | p24 | <20 µM |
| CCN1c2ncc(CCOc3ccc(NC(=O)c4ccccc4C(=O)O)cc3C)cc2C(=O)N(C)c2cccnc21 | - | - | EC50 | RT-K103N Y181C | C8166 | p24 | 0.01–0.05 µM |
| Cc1ncn(Nc2ccc(F)cc2)c1-c1ccccc1 | - | IIIB | EC50 | - | MT-4 | cytopathic effect / MTT | >30.82 µM |
| C=CCN(CC=C)C(=S)N=Nc1c(O)n(CC=C)c2ccccc12 | chronic infection | - | EC50 | - | H9/HIV-1 + H9 | RT activity | 2 µg/mL |
| C[C@@]1(F)[C@H](O)[C@@H](CO)O[C@H]1n1ccc2c(N)nc(N)nc21 | - | - | EC90 | - | PBMC | - | >100 µM |
| CCN1c2ncc(CCOc3ccc(-c4ccc(C(=O)O)nc4)cc3C)cc2C(=O)N(C)c2cccnc21 | - | - | EC50 | RT-K103N Y181C | C8166 | p24 | <0.01 µM |
| COc1nc(N(C)C)nc(C(=O)c2c(F)cccc2F)c1C | - | IIIB | EC50 | EFV-resistant (K103R V179D P225H) | C8166 | MTT | >20 µM |
| COc1ncnc2c1ccn2[C@@H]1O[C@H](CO)[C@@H](O)[C@@]1(C)F | - | - | EC90 | - | PBMC | - | 85.6 µM |
| N#Cc1cc(C#N)cc(Oc2cc(Cl)cc(OCC(=O)Nc3ccc(S(N)(=O)=O)cc3Cl)c2)c1 | - | - | EC50 | - | MT-4 | p24 | <20 µM |
| CCOC(=O)[C@H](C)NP(=O)(OC[C@H]1O[C@@H](n2cc(I)c3c(N)ncnc32)[C@](C)(F)[C@@H]1O)Oc1ccccc1 | - | - | EC90 | - | PBMC | - | >100 µM |
| N#Cc1cc(Cl)cc(Oc2cc(Cl)cc(OCC(=O)NCC3CCS(=O)(=O)C3)c2)c1 | - | - | EC95 | - | MT-4 | p24 | <20 µM |
| C[C@@]1(F)[C@H](O)[C@@H](CO)O[C@@H]1n1cc(I)c2c(N)nc(N)nc21 | - | - | EC90 | - | PBMC | - | >100 µM |
| CN(C)S(=O)(=O)c1ccc2c(c1)CCN2C(=O)COc1cc(Cl)cc(Oc2cc(Cl)cc(C#N)c2)c1 | - | - | EC95 | - | MT-4 | p24 | <20 µM |
| C[C@@H]1CCO[C@H]2Cn3cc(C(=O)NCc4ccc(F)cc4F)c(=O)c(O)c3C(=O)N12 | - | NL4-3 | EC50 | R263K | CBMC | RT activity | 0.0021 µM |
| Cn1c(COc2ccc(Cl)c(Oc3cc(Cl)cc(C#N)c3)c2)nc2ccccc21 | - | - | EC95 | - | MT-4 | p24 | <20 µM |
| NNC(=O)c1ccccc1SSc1ccccc1C(=O)NN | - | - | EC50 | - | CEM | cytopathic effect / XTT | >16 µM |
| COc1nc(N(C)C)nc(C(C#N)c2c(F)cccc2F)c1C | - | IIIB | EC50 | K103N + Y181C | MT-4 | MTT | >10 µM |
| O=C(NCc1ccccc1)c1ccccc1SSc1ccccc1C(=O)NCc1ccccc1 | - | - | EC50 | - | CEM | cytopathic effect / XTT | 5 µM |
| N#Cc1cc(Cl)cc(Oc2cc(OCc3[nH]nc4nc(N5CCNCC5)ccc34)ccc2Cl)c1 | - | - | EC95 | - | MT-4 | p24 | <20 µM |
| COc1cc(C(C#N)c2c(F)cccc2F)nc(N(C)C)n1 | - | IIIB | EC50 | - | MT-4 | MTT | 3 µM |
| O=C(c1ccccc1SSc1ccccc1C(=O)N1CCCCC1)N1CCCCC1 | - | - | EC50 | - | CEM | cytopathic effect / XTT | 21 µM |
| CN(C)c1nc(Cl)cc(C(C#N)c2c(F)cccc2F)n1 | - | IIIB | EC50 | EFV-resistant (K103R V179D P225H) | C8166 | MTT | >80 µM |
| NS(=O)(=O)c1ccc(NC(=O)COc2cccc(Cc3ccccc3)c2)c(Cl)c1 | - | - | EC50 | - | MT-4 | p24 | <20 µM |
| Cn1cc(NC(=O)Nc2cc(C(=O)Nc3cc(C(=O)Nc4ccc(S(=O)(=O)O)c5cc(S(=O)(=O)O)ccc45)n(C)c3)n(C)c2)cc1C(=O)Nc1cc(C(=O)Nc2ccc(S(=O)(=O)O)c3cc(S(=O)(=O)O)ccc23)n(C)c1 | - | N119(NEV-R) | EC50 | - | MT-4 | cytopathic effect / XTT | 1.2 µM |
| CCN1c2ncc(CCOc3ccc(-c4ccc[n+]([O-])c4)cc3C)cc2C(=O)Nc2c(C)ccnc21 | - | - | EC50 | RT-K103N Y181C | C8166 | p24 | <0.01 µM |
| O=C(NCCO)c1ccccc1SSc1ccccc1C(=O)NCCO | - | - | EC50 | - | CEM | cytopathic effect / XTT | 4.5 µM |
| Cc1c(Cl)nc(N(C)C)nc1C(C#N)c1c(F)cccc1F | - | IIIB | EC50 | EFV-resistant (K103R V179D P225H) | C8166 | MTT | >34 µM |
| COC(=O)c1c(C)[nH]c(=S)n1Nc1cccc(Cl)c1 | - | IIIB | EC50 | - | MT-4 | cytopathic effect / MTT | >190 µM |
| CS(=O)(=O)c1ccc2c(c1)CCN2C(=O)COc1cc(Cl)cc(Oc2cc(Cl)cc(C#N)c2)c1 | - | - | EC95 | - | MT-4 | p24 | <20 µM |
| Cc1ncn(Nc2cccc(Cl)c2)c1C | - | IIIB | EC50 | - | MT-4 | cytopathic effect / MTT | >214 µM |
| C#Cc1cn([C@@H]2O[C@H](CO)[C@@H](O)[C@@]2(C)F)c2ncnc(N)c12 | - | - | EC90 | - | PBMC | - | >100 µM |

4 of the rows above, restated:

{"SMILES": "O=C(c1ccccc1SSc1ccccc1C(=O)N1CCOCC1)N1CCOCC1", "measure": "EC50", "cell line": "CEM", "method": "cytopathic effect / XTT", "value": ">50 µM"}
{"SMILES": "Cn1c(COc2ccc(Cl)c(Oc3cc(Cl)cc(C#N)c3)c2)nc2ccccc21", "measure": "EC95", "cell line": "MT-4", "method": "p24", "value": "<20 µM"}
{"SMILES": "Cn1cc(NC(=O)Nc2cc(C(=O)Nc3cc(C(=O)Nc4ccc(S(=O)(=O)O)c5cc(S(=O)(=O)O)ccc45)n(C)c3)n(C)c2)cc1C(=O)Nc1cc(C(=O)Nc2ccc(S(=O)(=O)O)c3cc(S(=O)(=O)O)ccc23)n(C)c1", "strain": "N119(NEV-R)", "measure": "EC50", "cell line": "MT-4", "method": "cytopathic effect / XTT", "value": "1.2 µM"}
{"SMILES": "NS(=O)(=O)c1ccc(NC(=O)COc2cccc(Cc3ccccc3)c2)c(Cl)c1", "measure": "EC50", "cell line": "MT-4", "method": "p24", "value": "<20 µM"}